According to the supplement of paper PMC9931576:
Human monoclonal antibodies against the spike receptor-binding domain (heavy:light variable regions). IC50 against pseudoviruses bearing the spike of naturally observed variants; lower = stronger; >10 µg/ml means not reached at the top dose. No active / inactive call. The stated detection limit is 0.0005 µg/ml; values near or below 0.001 µg/ml lie at the floor of the assay.

B1: BD56-040 (protein)
chain 1: QVQLVESGGGVVQPGKSLRLSCAASGFTFTNHGMHWVRQAPGKGLEWVALIWNDGSNQQYADFVRGRFLISRDNSKNTLYLQMNSLRAEDTAVYYCARDGVRYYYGSGSPDYWGQGSLVTVSS
chain 2: DTVMTQTPLSLSVTPGQPASMSCKSSQSLLHTDGKTYLYWYLQKPGQSPQLLIYDLSTRFSGVPERFIGSGSGTDFTLKISRVEAEDVGVYYCMQSLYVPLTFGGGTKVQIK
B2: BD56-054 (protein)
chain 1: EVQLVESGGGFVQPGRSLRLSCVASGFTFDEYAIHWVRQAPGKGLEWVSGVSSNSATIGYADSVKGRFIISRDNAKNSLYLHMNSLRAEDTAFYYCAKDMNAEGPGSSYYHYYGMDVWGHGTTVTVSS
chain 2: QSVLTQPPSASGTPGQRVTISCSGSSSNIGGNTVNWYQQLPGTAPKLLIYSNNQRPSGVPDRFSGSKSGTSASLAISGLQSEDESDYYCAAWDDSLNGQYVFGTGTKVTVL
B3: BD56-055 (protein)
chain 1: EVQLVESGGGLVQPGRSLRLSCAASGLTFDDYAIHWVRQAPGKGLEWVSGVSSNSATIGYADSVKGRFIISRDNPKNSVFLQMNRLRAEDTAIYYCAKDMNGEGPGSSHYNYYGMDVWGQGTTVTVSS
chain 2: QSVLTQPPSASGTPGQRVTISCSGSSSNIGSNTVNWYQQLPGTAPKLLIYSNDQRPSGVPDRFSGSKSGTSASLAISGLQSEDETDYYCAAWDDSLNGHYVFGTGTKVTVL
B4: BD56-027 (protein)
chain 1: EVQLVESGGGLVKPGGSLRLSCAASGFTFNHAWMSWVRQAPGKGLEWVGRMKSIHDGGTADYAAPVKGRFTFSRDDSKKTLYMEMNSLTIEDTAVYYCTTDLDLRSEMGTFEHDAFDSWGQGTMVTVSS
chain 2: DIQMTQSPSSLSASVGDRVSITCRASQSVSSFLNWYQHRPGKAPKLLIYAASSLQSGVPSRFSGSGSGTDFTLTITSLRPEDFATYYCQQTYGAPSFGQGTKVDFK
B5: BD56-022 (protein)
chain 1: EVQLVESGGGLVQPGGSLRLSCVASGFTFSSYWMHWVRQAPGKGLVWVSRIHPDGTFTSYAESVKGRFSISRDNAKNTLYLQMNSLRAEDTALYYCARDYDILTNYYSADPDVFDIWGQGTMVTVSS
chain 2: DIVMTQSPDSLPVSLGERATINCKSSQSLLYSSNNKNYLAWYQQKPGQPPKLLIYWASTRESGVPDRFSGSGSGTEFTLTISSLQAEDVAVYHCQQYYDPPYTFGQGTKLEIK
B6: BD56-074 (protein)
chain 1: EVQLVESGGGLVQPGRSLTLSCAASGFTFDDYAIHWVRQRPGKGLEWVSGISWNGGTIGYVDSVKGRFIISRDNAKNSLYLHMRSLRVEDTALYFCAKAKTRGDSDWPFDTWGQGSLVTVSS
chain 2: SYVLTQPPSVSVAPGKTARITCGGGNIGSKSVHWYQQKPGQAPVLVVFDDSDRPSGIPDRFSGSKSGNTATLTISRVEAGDEADFYCQVWDSSSDLWVFGGGTKVTIL
B7: BD56-021 (protein)
chain 1: EVQLVESGGGSVKPGTSLRVSCAASGFTFDDYAMNWVRQRPGKGLEWVASISWHSVSRDYADSVKGRFTISRDNAKNSLFLQMNSLRPEDTAFYYCAKSRGYETLTGGDYFDSWGQGTLVTVSS
chain 2: EIVLTQSPGSLSLSPGESATLSCRASQTVNNNFLAWYQQKPGQAPRLLIYGASSRATGIPDRFSGSGSGTDFTLTISRLEPGDFAVYYCQQYGNSPSITFGQGTRLDIK
B8: BG7-20 (protein)
chain 1: QVQLVQSGAEVKKAGASVKVSCKASGYTFTSYDINWVRQASGQGLEWMGWMNPISGNTGYAQKFQGRVTMTRNTSITTAYMELSSLRSEDTAVYFCARGGRYCSSTTCYSGVGMDVWGQGTTVTVPS
chain 2: QSVLTQPPSVSGAPGQRVTISCTGSSSNIGAGYDVHWYHQLPGTAPKFLIYGNSNRPSGVPDRFSGSKSGTSASLAITRLQAEDEADYYCQSYDSSLSGWVFGGGTKLTVL
B9: BD56-025 (protein)
chain 1: EMQLVESGGGLVQPGRSLRLSCAASGFTFDDYGMHWVRQAPGKGLKWVSGLSWNGGTIGYADSVKGRFIISRDNAKNSLYLQMNSLRAEDTALYYCTKDIGYYYDNSGYYVDYYVMDVWGQGTTVTVSS
chain 2: QSVLTQPPSVSAAPGQKVTISCSGSSSNIGNNYVSWYQQVPGTAPKLLIYDNNKRPSGIPDRFSGSKSGTSATLGITGLLTGDGADYYCGTWDSSLSVVVFGGGTKLTVL
B10: BD56-046 (protein)
chain 1: EVQLVESGGRVVRPGGSLRLSCAASGFTFDDYGMSWVRQAPGKGLEWVSGINWNGGRTDYADSVKGRFTISRDNARNSLYLQMNSLRAEDTALYHCARDYCGDDCYSLLVSTDAFDIWGQGTMVTVSS
chain 2: YELTQSLSVSVALGQTARTTCGGNNIGSKNVHWYQQRPGQAPVLVIYNNSNRPSGIPERFSGSNSGNTATLTISRAQAGDEADYYCQVWDGSTVVFGGGTKLTVL
B11: BD56-076 (protein)
chain 1: QVQLVQSGAEVKKPGSSVKVSCKSSGSTFSSYGHNWVRQAPGQGLEWMGRIIPILNIVNYAQKFQGRVTITADISTNTAYMELGSLRYEDTAVYYCARPADYGDTLGSPNWEFDRAFDIWGQGTMVTVS
chain 2: EIVLTQSPGTLSLSPGERATLSCRASQSVTSSYLAWYQQKPGQAPRLLIYGASSRATGVPDRFSGSGSGTDFTLTISRLEPGDFAVYYCQQLVGSPWTFGQGTKVESK
B12: BD56-049 (protein)
chain 1: EEQLLESGGGLVQPGGSLRLSCAASGFTFSSHAMNWVRQAPGKRLEWVSGTTGPGDHTYYADSVKGRFTISRDNSKNTLYLQMSSLRVGDTAVYYCAKVINGNYDSWSGYFDYYYYAMDVWGQGTTVTVSS
chain 2: QSALTQPASVSGSPGQSITIPCTGTSSDVGNFNVVSWYQQHPGAAPKLMIYEVTKRPSGVSVRFSGSKSGNTASLTISGLQAEDEADYYCCSYGGSSSVVFGGGTKLTVL

Key:
Assay in all cases: pseudovirus neutralization IC50; higher = weaker neutralization
[1] = target: SARS-CoV-2 Omicron BA.1 spike pseudovirus
Description: (§1)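 Single-round VSV luciferase pseudovirus mixed with antibody dilutions for 1 h and put on Huh-7 cells for about a day; IC50 from the dose curve.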

[2] = target: SARS-CoV-2 Omicron BA.2 spike pseudovirus
Description: as §1

[3] = target: SARS-CoV-2 Omicron BA.2.75 spike pseudovirus
Description: as §1

[4] = target: SARS-CoV-2 Omicron BA.5 spike pseudovirus
Description: as §1

[5] = target: SARS-CoV-2 Omicron BQ.1.1 spike pseudovirus
Description: as §1

[6] = target: SARS-CoV-2 Omicron XBB spike pseudovirus
Description: as §1

[7] = target: SARS-CoV-2 early D614G spike pseudovirus
Description: as §1

| Binder | pseudovirus neutralization IC50 [1] | pseudovirus neutralization IC50 [2] | pseudovirus neutralization IC50 [3] | pseudovirus neutralization IC50 [4] | pseudovirus neutralization IC50 [5] | pseudovirus neutralization IC50 [6] | pseudovirus neutralization IC50 [7] |
| --- | --- | --- | --- | --- | --- | --- | --- |
| B1 | 0.151 µg/mL | 0.267 µg/mL | 0.177 µg/mL | 0.237 µg/mL | > 10 µg/mL | > 10 µg/mL | 0.225 µg/mL |
| B2 | 0.0531 µg/mL | 0.0543 µg/mL | 0.0578 µg/mL | 4.81 µg/mL | > 10 µg/mL | > 10 µg/mL | 0.0163 µg/mL |
| B3 | 0.263 µg/mL | 0.206 µg/mL | 0.173 µg/mL | > 10 µg/mL | > 10 µg/mL | > 10 µg/mL | 0.0513 µg/mL |
| B4 | 0.00296 µg/mL | 0.00314 µg/mL | 0.00483 µg/mL | 0.00272 µg/mL | > 10 µg/mL | 4.52 µg/mL | 0.001 µg/mL |
| B5 | 0.00234 µg/mL | 0.00275 µg/mL | 0.00418 µg/mL | 0.00208 µg/mL | > 10 µg/mL | > 10 µg/mL | 0.00377 µg/mL |
| B6 | 0.0231 µg/mL | 0.0178 µg/mL | 0.0141 µg/mL | 0.0447 µg/mL | > 10 µg/mL | > 10 µg/mL | 0.0225 µg/mL |
| B7 | 0.00129 µg/mL | 0.0008 µg/mL | 0.00192 µg/mL | 0.00122 µg/mL | > 10 µg/mL | > 10 µg/mL | 0.001 µg/mL |
| B8 | > 10 µg/mL | > 10 µg/mL | > 10 µg/mL | > 10 µg/mL | > 10 µg/mL | > 10 µg/mL | 0.0025 µg/mL |
| B9 | 0.113 µg/mL | 0.166 µg/mL | 0.118 µg/mL | 2.68 µg/mL | > 10 µg/mL | > 10 µg/mL | 0.0771 µg/mL |
| B10 | 0.743 µg/mL | 1.6 µg/mL | 1.57 µg/mL | 1.71 µg/mL | 3.04 µg/mL | 2.45 µg/mL | 0.0847 µg/mL |
| B11 | 0.001 µg/mL | 0.000642 µg/mL | 0.000905 µg/mL | 4.64 µg/mL | > 10 µg/mL | 0.0119 µg/mL | 0.001 µg/mL |
| B12 | 0.001 µg/mL | 0.000805 µg/mL | 0.000519 µg/mL | 0.874 µg/mL | 0.809 µg/mL | 9.19 µg/mL | 0.001 µg/mL |
